These results are taken from PMC9278102, “A So-Far Overlooked Secondary Conformation State in the Binding Mode of SARS-CoV-2 Spike Protein to Human ACE2 and Its Conversion Rate Are Crucial for Estimating Infectivity Efficacy of the Underlying Virus Variant” (2022).

The stoichiometry N is the number of molecules, sites or subunits per partner or assembly.

For assay [1], the target named is SARS-CoV-2 B.1.1.7 S1-S2 -His-T4 trimer (SARS-CoV-2 B.1.1.7 (α-variant)). Description: SEC. (In gel filtration, larger molecules generally elute earlier.)
In assay [2] the target is SARS-CoV (2002) S1-S2-His trimer (SARS-CoV (2002)). The assay can be described thus: SEC.

In the case of “SARS-CoV-2 B.1.1.7 S1-S2 -His-T4 trimer (domain or fragment)”, in assay [1], the stoichiometry N was 3.

As to “SARS-CoV (2002) S1-S2-His trimer (domain or fragment)”, the stoichiometry N in assay [2] worked out at 3.
